Anti-infective test results gathered from many reports (values: NIAID ChemDB through PubChem).

All rows: growth or infection tests; species: HIV-1; method: p24; endpoint: EC50

An empty or dashed field is not shown. Conditions beyond the fields shown may differ between rows. ECn is the concentration giving n% inhibition of infection, replication or growth.

smiles,cells,mutations,strain,result
Cc1cn([C@H]2C[C@H](N=[N+]=[N-])[C@@H](CO)O2)c(=O)[nH]c1=O,PBMC,-,-,0.006 µM
O=C(N[C@H]1c2ccccc2OC[C@H]1O)[C@H](Cc1cccnc1)C[C@H](O)CN1CCN(Cc2ccn(-c3cccc(F)c3)c2)C[C@H]1C(=O)NCC(F)(F)F,MT-4,PR-L10I N37S R41K M46I I54V I62V L63P A71V V77I V82A L90M I93L,Q-60C Clinical isolate,<0.015 µM
c1ccc(CNCc2ccc(CN3CCCNCCNCCCNCC3)cc2)nc1,PBMC,-,BaL,>6.25 µM
C[C@H]1CS(=O)(=O)C[C@H]1OC(=O)N[C@@H](Cc1ccccc1)[C@H](O)CN1C[C@H]2CCCC[C@H]2C[C@H]1C(=O)NC(C)(C)C,MT-4,-,IIIB,<0.8 µM
CC(C)(C)NC(=O)[C@H]1N(C(=O)[C@@H](O)[C@H](Cc2ccccc2)NC(=O)[C@H](CC(N)=O)NC(=O)COc2cccc3ccccc23)CSC1(C)C,PBMC,-,Clinical isolates,0.13 µM
O=C(O)c1cn2c3c(c(N4CCN(c5ccccn5)CC4)c(F)cc3c1=O)OCC2CF,CEM,-,IIIB,0.19 µg/mL
Clc1nc(Cl)c2[nH]cnc2n1,CD4+HELA + HeLa,RT-M184V,-,1 µM
CSC[C@H](NC(=O)c1ccc2ccccc2n1)C(=O)N[C@@H](Cc1ccccc1)[C@H](O)CN1CCCC[C@H]1C(=O)NC(C)(C)C,C8166,-,RF,0.013 µM
Cc1nc(CCCCCCC(O)c2ccccc2)n2nc(-n3ccnc3)ccc12,C8166,-,RF,0.004 µM
CCCCCCCCCCCCCCCCCCOCCCOP(=O)(O)C(=O)O,MT-2,-,LAI,0.95 µM
CSC[C@H](NC(=O)COc1cccc2cnccc12)C(=O)N[C@@H](Cc1ccccc1)[C@H](O)C(=O)N1CSC(C)(C)[C@H]1C(=O)NC(C)(C)C,PBMC,-,Clinical isolates,0.01 µM
O=C(O)c1cc(O)cc(O)c1N=Nc1ccc(/C=C/c2ccc(N=Nc3c(O)cc(O)cc3C(=O)O)cc2S(=O)(=O)O)c(S(=O)(=O)O)c1,PBMC,-,CLADE A,3.2 µg/mL
CC(C)(C)NC(=O)[C@@H]1CCCN1C[C@@H](O)[C@H](Cc1ccccc1)NC(=O)[C@H](CC(N)=O)NC(=O)OCc1ccccc1,C8166,-,RF,0.4 µM
O=C1N(Cc2ccc(CO)cc2)[C@H](Cc2ccccc2)[C@H](O)[C@@H](O)[C@@H](Cc2ccccc2)N1Cc1ccc(CO)cc1,PBMC,PR-L10V T12I G16E R57K I64V,Isolate A PR L10V/T12I/G16E/R57K/I64V,<0.2 µM
CN(C[C@@H](CCN1CCC2(CC1)CS(=O)c1ccccc12)c1ccc(Cl)c(Cl)c1)S(=O)(=O)c1ccccc1,PBMC,-,YU-2 (M-tropic),<12.5 µM
C[C@H](Cn1cnc2c(N)ncnc21)OCP(=O)(O)O,MT-2,RT-K103N Y181C,A17,0.5 µM
Cc1nnc(C[C@H](C[C@H](O)CN2CCN(C(C)(C)c3ncc(-c4ccc(Cl)cc4)o3)C[C@H]2C(=O)NCC(F)(F)F)C(=O)N[C@H]2c3ccccc3OC[C@H]2O)o1,MT-4,PR-L10I N37S R41K M46I I54V I62V L63P A71V V77I V82A L90M I93L,Q-60 Clinical isolate,<0.008 µM
Cc1nc(CCCCCCC(=O)c2ccccc2)n2nc(-n3ccnc3)ccc12,C8166,-,RF,0.005 µM
CCCN(C(=O)NCc1ccccc1)C1CCN(CCC(CN(C)S(=O)(=O)c2ccccc2)c2ccccc2)CC1,PBMC,-,YU-2 (M-tropic),<3 µM
CCCCCCCCCCCCCCCCCCOC[C@H](COP(=O)(O)C(=O)O)OCCCC,MT-2,-,LAI,0.69 µM
O=C(O)c1cc(SSc2ccc([N+](=O)[O-])c(C(=O)O)c2)ccc1[N+](=O)[O-],H9,-,IIIB,300 µM
Nc1ccn([C@H]2CC[C@@H](CO)O2)c(=O)n1,CBMC,-,HXB2D,0.8 ± 0.1 µM
C[C@@H]1CS(=O)(=O)C[C@@H]1OC(=O)N[C@@H](Cc1ccccc1)[C@H](O)CN1C[C@H]2CCCC[C@H]2C[C@H]1C(=O)NC(C)(C)C,MT-4,-,IIIB,<0.8 µM
CCCN(C(=O)Nc1ccccc1)C1CCN(CCC(CN(C)S(=O)(=O)c2ccccc2)c2ccccc2)CC1,PBMC,-,YU-2 (M-tropic),<6 µM
C[C@H]1[C@@H](OC(=O)N[C@@H](Cc2ccccc2)[C@H](O)CN2C[C@H]3CCC[C@H]3C[C@H]2C(=O)NC(C)(C)C)CCS1(=O)=O,MT-4,-,IIIB,<0.1 µM
CC(C)(c1ncc(-c2ccc(F)cc2)o1)N1CCN(C[C@@H](O)C[C@@H](Cc2nnc(-c3ccccc3)o2)C(=O)N[C@H]2c3ccccc3OC[C@H]2O)[C@H](C(=O)NCC(F)(F)F)C1,MT-4,PR-L10I N37S R41K M46I I54V I62V L63P A71V V77I V82A L90M I93L,Q-60 Clinical isolate,<0.016 µM
N#Cc1ccccc1-n1ccc(CN2CCN(C[C@@H](O)C[C@@H](Cc3cccnc3)C(=O)N[C@H]3c4ccccc4OC[C@H]3O)[C@H](C(=O)NCC(F)(F)F)C2)c1,MT-4,-,NL4-3 WT,<0.046 µM
CCC[C@@H]1[C@H](OC(=O)N[C@@H](Cc2ccccc2)[C@H](O)CN2C[C@H]3CCCC[C@H]3C[C@H]2C(=O)NC(C)(C)C)CCS1(=O)=O,MT-4,-,IIIB,<0.8 µM
c1cc(CN2CCCNCCNCCCNCC2)ccc1CN1CCCNCCNCCCNCC1,PBMC,-,RF,0.005 µg/mL
CN(C[C@@H](CCN1CCC(CCCc2ccccc2)CC1)c1cccc(Cl)c1)S(=O)(=O)c1ccccc1,PBMC,-,YU-2 (M-tropic),<12.5 µM
Nc1ccn([C@H]2CC[C@@H](CO)O2)c(=O)n1,H9,-,LAI,0.038 µM
CC(C)(C)NC(=O)[C@@H]1C[C@@H]2CCCC[C@@H]2CN1C[C@@H](O)[C@H](Cc1ccccc1)NC(=O)O[C@H]1CCS(=O)(=O)[C@H]1C1CCCC1,MT-4,-,IIIB,<0.4 µM
Cc1nc(CCCCCCC(=O)c2ccccc2)n2nc(Cl)ccc12,C8166,-,RF,0.08 µM
O=C1N[C@H](C(=O)O)CS1,U1,-,-,>3000 µM
O=C(N[C@@H](Cc1ccccc1)[C@@H](O)C[C@@H](Cc1ccccc1)C(=O)N[C@H]1c2ccccc2C[C@H]1O)OC1CCOC1,MT-4,-,IIIB,<0.003 µM
CC(C)(c1ncc(-c2ccc(Cl)cc2)o1)N1CCN(C[C@@H](O)C[C@@H](Cc2nnco2)C(=O)N[C@H]2c3ccccc3OC[C@H]2O)[C@H](C(=O)NCC(F)(F)F)C1,MT-4,-,NL4-3 WT,<0.125 µM
CC(C)CN(C[C@@H](O)[C@H](Cc1ccccc1)NC(=O)[C@H](CC(N)=O)NC(=O)c1ccc2ccccc2n1)C(=O)NC(C)(C)C,MT-4,PR-L10R M46I L63P 184V,NL4-3,<1.5 µM
CCCC[C@H]1[C@@H](OC(=O)N[C@@H](Cc2ccccc2)[C@H](O)CN2C[C@H]3CCCC[C@H]3C[C@H]2C(=O)NC(C)(C)C)CCS1(=O)=O,MT-4,-,IIIB,<0.4 µM
Cc1nnc(C[C@H](C[C@H](O)CN2CCN(C(C)(C)c3ncc(-c4ccc(F)cc4)o3)C[C@H]2C(=O)NCC(F)(F)F)C(=O)N[C@H]2c3ccccc3OC[C@H]2O)o1,MT-4,PR-L10I N37S R41K M46I I54V I62V L63P A71V V77I V82A L90M I93L,Q-60 Clinical isolate,<0.031 µM
O=S1(=O)CCCCS1,PBLC,-,RF,>100 µM
Cc1nc(CCCCCCC(=O)c2ccccc2)n2nc(-n3cccc3)ccc12,C8166,-,RF,0.005 µM
CC(C)Nc1cccnc1N1CCN(C(=O)c2cc3cc(NS(C)(=O)=O)ccc3[nH]2)CC1,Macrophage + Monocytes/macrophages,-,BaL,0.02 µM
Cn1cc(C(=O)O)c(=O)c2cc(F)c(N3CC=C(c4ccccc4)CC3)c(C(F)(F)F)c21,PBMC,-,IIIB,0.04 µM
O=C(N[C@H]1c2ccccc2OC[C@H]1O)[C@H](Cc1nnco1)C[C@H](O)CN1CCN(Cc2ccc(-c3ccc(Cl)cc3)o2)C[C@H]1C(=O)NCC(F)(F)F,MT-4,PR-L10I M46I I54V Q58E L63P I64V V77I V82F I84V L90M I93L,K-60 Clinical isolate,<0.063 µM
CC(C)(C)OC(=O)[C@@H]1CCCN1C[C@@H](O)[C@H](Cc1ccccc1)NC(=O)[C@H](CC(N)=O)NC(=O)c1ccc2ccccc2c1,C8166,-,RF,0.13 µM
CCCc1c([Se]c2ccccc2)n(COCC)c(=O)[nH]c1=O,MT-2,-,Cat #3 strain,0.62 µM
Nc1cc(Cl)nc(SCc2ccc3ccccc3c2)n1,MT-4,-,RT-WT,<0.22 µM
Nc1ncnc2c1ncn2CCOCP(=O)(O)O,H9,-,LAI,4.45 µM
COc1ccc(OC)c(CCNC(=S)Nc2ccc(Br)cn2)c1,PBMC,-,RT-Y181C K103N A17 variant NNRTI-resistant,8 µM
Cc1cn([C@H]2C[C@H](N=[N+]=[N-])[C@@H](CO)O2)c(=O)[nH]c1=O,Macrophage + Monocytes/macrophages,RT-P236L,BaL,0.18 µM
S=C(NCc1ccco1)Nc1nccs1,PBMC,-,IIIB,<0.001 µM
Cc1c(Sc2ccccc2)n(COCCO)c(=O)[nH]c1=O,PB macrophages (day 21) + Macrophage,-,BaL,8.8 µM
CC(C)(c1ncc(-c2ccc(Cl)cc2)o1)N1CCN(C[C@@H](O)C[C@@H](Cc2nnc(-c3ccccc3)o2)C(=O)N[C@H]2c3ccccc3OC[C@H]2O)[C@H](C(=O)NCC(F)(F)F)C1,MT-4,PR-L10I N37S R41K M46I I54V I62V L63P A71V V77I V82A L90M I93L,Q-60 Clinical isolate,<0.016 µM
CCN(CC)C(=O)/C=C/CSc1nc(N)cc(Cl)n1,MT-4,-,MF (DLV-resistant),<0.11 µM
O=C(N[C@H]1c2ccccc2OC[C@H]1O)[C@H](Cc1cccnc1)C[C@H](O)CN1CCN(Cc2ccn(-c3ccc(F)c(F)c3F)c2)C[C@H]1C(=O)NCC(F)(F)F,MT-4,PR-L10I M46I I54V Q58E L63P I64V V77I V82F I84V L90M I93L,K-60C Clinical isolate,<0.015 µM
CCCCCCCCCCCCCCCCCCOC[C@@H](O)COP(=O)(O)C(=O)O,MT-2,-,LAI,1.4 µM
COc1cccc(CSc2nc(N)cc(Cl)n2)c1,MT-4,-,RT-WT,<0.27 µM

6 of the rows above, restated:

smiles,cells,mutations,strain,result
COc1ccc(OC)c(CCNC(=S)Nc2ccc(Br)cn2)c1,PBMC,-,RT-Y181C K103N A17 variant NNRTI-resistant,8 µM
Cc1nc(CCCCCCC(=O)c2ccccc2)n2nc(-n3ccnc3)ccc12,C8166,-,RF,0.005 µM
C[C@H]1CS(=O)(=O)C[C@H]1OC(=O)N[C@@H](Cc1ccccc1)[C@H](O)CN1C[C@H]2CCCC[C@H]2C[C@H]1C(=O)NC(C)(C)C,MT-4,-,IIIB,<0.8 µM
CC(C)(c1ncc(-c2ccc(Cl)cc2)o1)N1CCN(C[C@@H](O)C[C@@H](Cc2nnco2)C(=O)N[C@H]2c3ccccc3OC[C@H]2O)[C@H](C(=O)NCC(F)(F)F)C1,MT-4,-,NL4-3 WT,<0.125 µM
CC(C)(C)NC(=O)[C@@H]1CCCN1C[C@@H](O)[C@H](Cc1ccccc1)NC(=O)[C@H](CC(N)=O)NC(=O)OCc1ccccc1,C8166,-,RF,0.4 µM
CCC[C@@H]1[C@H](OC(=O)N[C@@H](Cc2ccccc2)[C@H](O)CN2C[C@H]3CCCC[C@H]3C[C@H]2C(=O)NC(C)(C)C)CCS1(=O)=O,MT-4,-,IIIB,<0.8 µM